PubChem BioAssay AID1259414 – Drosophila RNAi Screening Center | 2018
The deposit covers about 24,000 reagents; below is an unselected part of those that have a named target and a result. In the full data, about 1,210 (5%) are marked active. 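Inactive calls also include excluded dsRNAs with several or no targets, genes unexpressed in JW18, and well A1, regardless of score.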 Entries without a mark were called inactive.

- Aim: 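Fly genes that alter Wolbachia amount inside host cells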 (primary screen)
- Cell system: Drosophila JW18 cells infected with Wolbachia
- Reagent: long dsRNA against Drosophila genes, 0.25 µg dsRNA per well of a 384-well plate
- Duration: 5 days
- Conditions: cells persistently infected with Wolbachia before knock-down; no added drug
- Measured: 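Automated imaging of bacterial rRNA staining divided by host cell count, reported as plate-normalised robust z-score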
- Scale: Wolbachia per cell robust z: higher = more Wolbachia per host cell than the plate typical
- Rule for the call: 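Active if absolute robust z reaches 1.5 in two or more of three replicates, leaving out multi- or no-target dsRNAs, genes unexpressed in JW18 and A1 wells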

Silencing of MCPH1 (GeneID 36272) [DRSC06309] came out at: Wolbachia per cell robust z, rep 1 = -0.869; Wolbachia per cell robust z, rep 2 = -0.954; Wolbachia per cell robust z, rep 3 = 0.732. Knock-down of MCPH1 (GeneID 36272) [DRSC07308] resulted in: Wolbachia per cell robust z, rep 1 = -0.521; Wolbachia per cell robust z, rep 2 = 0.105; Wolbachia per cell robust z, rep 3 = -0.28. Depletion of MCPH1 (GeneID 36272) [DRSC22536] resulted in: Wolbachia per cell robust z, rep 1 = -0.234; Wolbachia per cell robust z, rep 2 = 0.165; Wolbachia per cell robust z, rep 3 = -1.24. Against MCPH1 (GeneID 36272) [DRSC28302], the entry reads Wolbachia per cell robust z, rep 1 = 0.283; Wolbachia per cell robust z, rep 2 = -0.00858; Wolbachia per cell robust z, rep 3 = 0.173. With knock-down of bgcn (GeneID 47873) [DRSC04062], the screen gave Wolbachia per cell robust z, rep 1 = 0.882; Wolbachia per cell robust z, rep 2 = 1.22; Wolbachia per cell robust z, rep 3 = 0.674. Knock-down of bgcn (GeneID 47873) [DRSC04063] gave: Wolbachia per cell robust z, rep 1 = -0.275; Wolbachia per cell robust z, rep 2 = 0.111; Wolbachia per cell robust z, rep 3 = 0.645.

With knock-down of Fer3HCH (GeneID 32260) [DRSC19892], the record shows Wolbachia per cell robust z, rep 1 = 0.42; Wolbachia per cell robust z, rep 2 = -2.77; Wolbachia per cell robust z, rep 3 = -2.15. Depletion of Fer3HCH (GeneID 32260) [DRSC26911] resulted in: Wolbachia per cell robust z, rep 1 = -0.15; Wolbachia per cell robust z, rep 2 = -0.493; Wolbachia per cell robust z, rep 3 = -0.339. Arf6 (GeneID 36699) [DRSC05921] gave Wolbachia per cell robust z, rep 1 = 0.367; Wolbachia per cell robust z, rep 2 = 1.01; Wolbachia per cell robust z, rep 3 = -0.0804. Knock-down of rtp (GeneID 40627) [DRSC12132] came out at: Wolbachia per cell robust z, rep 1 = -0.0819; Wolbachia per cell robust z, rep 2 = 0.0169; Wolbachia per cell robust z, rep 3 = 0.663. Against CG15145 (GeneID 35064) [DRSC02446], the values are Wolbachia per cell robust z, rep 1 = 0.983; Wolbachia per cell robust z, rep 2 = 0.0253; Wolbachia per cell robust z, rep 3 = -0.841. Against CG15145 (GeneID 35064) [DRSC26674] the deposit lists Wolbachia per cell robust z, rep 1 = 0.0906; Wolbachia per cell robust z, rep 2 = -0.689; Wolbachia per cell robust z, rep 3 = -0.02.

Laid out differently: 2 of the entries above
Target gene,dsRNA,"Wolbachia per cell robust z, rep 1","Wolbachia per cell robust z, rep 2","Wolbachia per cell robust z, rep 3"
bgcn (GeneID 47873),DRSC04063,-0.275,0.111,0.645
Fer3HCH (GeneID 32260),DRSC19892,0.42,-2.77,-2.15
